## PSTVd loop 6 mutant pool in Nicotiana benthamiana

The pool varies loop 6 of the PSTVd intermediate strain in the pattern UNNNCGNNNG; wild type is UGACCGCGAG (upper and lower strand joined, each 5' to 3', the first 5 letters being the upper strand, closing pairs included).

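Three N. benthamiana plants were inoculated with the whole mutant pool. Progeny were sequenced from the inoculated region (day 5), the margin of the inoculated leaf (day 10) and systemic leaves (day 12).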

Values are reads per thousand in the sample; higher means more abundant, 0 means not found. Each value is the mean of three plants. "Pool" is the share in the plasmid pool used as inoculum, on the same scale. The inoculated region was read from the minus strand, the other sites from the plus strand. The authors trace changes outside the varied positions to PCR and sequencing errors or to mutation in the plant; presence does not show that a variant is infectious alone. For reference, wild type rose from 20.7 per thousand in the pool to 195, 198, 203 (inoculated region), 629, 591, 734 (leaf margin) and 942, 870, 868 (systemic leaves). Samples held 36,220 to 57,551 reads, so the smallest values rest on one or two reads.

sequence	pool	inoculated region	leaf margin	systemic leaves
UGCCCGUAGG	0.209	0.136	0.00773	0
UGUCCGAAAG	0.170	0.554	0.0514	0
UUGGCGUGAG	0.301	0.107	0.00773	0
UGCGCUACGG	0.0131	0	0	0
UAAGCGCCAG	0.118	0.107	0.00920	0
UGACCGGGGG	0.0392	0.114	0.107	0.0136
UAACCGCGAG	0.0915	17.5	14.3	11.3
UUGUCGCGCG	0.248	0.0889	0.00773	0
UGAGCGUUCG	0.183	0.0893	0.0276	0
UCCCCAGCGG	0.0131	0	0	0
UGAACGAAGG	0.0915	0.163	0.00920	0
UCUUCGCACG	0.170	0.0832	0	0
UUCACGCCUG	0.288	0.0953	0.00773	0.00684
UAGUCGAACG	0.183	0.112	0.0155	0
UUUACGUGAG	0.118	0.707	0.0783	0
UCUCCGUCCG	0.261	0.0832	0.0169	0
UGCUCGGAGG	0.209	0.0717	0	0
UUACCGGUGG	0.248	0.0847	0.0339	0
UCAGCGCGCG	0.0915	0.0766	0	0
UGUCCGGCGG	0.131	0.0838	0	0
UGAUCGUCCG	0.105	0.119	0.0169	0
UAGCCGCUAG	0.131	0.0659	0.00773	0
UGGACGACGG	0.170	0.112	0.0169	0
UGACCGAGGG	0.340	0.240	0.153	0.100
UACCCGAGUG	0.275	0.114	0.0169	0
UGGACGGAUG	0.235	0.138	0.0184	0
UAGACGCUGG	0.183	0.0765	0.00920	0
UUUUCGUCAG	0.222	0.0654	0.00920	0
UACCAGUUAG	0.0131	0	0	0
UCAGCGCUUG	0.222	0.0770	0.0169	0
UAGGCGGGCG	0.235	0.0480	0.0155	0
UACCCGUCCG	0.209	0.0650	0	0
UUCUCGAUCG	0.340	0.0772	0.00920	0
UCGACGACCG	0.261	0.0781	0.0155	0
UCUUCGCCUG	0.209	0.149	0.460	0.00684
UCACCGGCAG	0.196	0.100	0.0232	0
UUGGCGGGCG	0.340	0.102	0.00773	0
UGAGCGGUGG	0.222	0.167	0.0276	0
UUCGCGUAGG	0.248	0.125	0.00920	0

A selection of 4 entries from above:

* UGACCGGGGG (pool 0.0392): inoculated region 0.114; leaf margin 0.107; systemic leaves 0.0136
* UAGCCGCUAG (pool 0.131): inoculated region 0.0659; leaf margin 0.00773; systemic leaves 0
* UGAGCGUUCG (pool 0.183): inoculated region 0.0893; leaf margin 0.0276; systemic leaves 0
* UCAGCGCUUG (pool 0.222): inoculated region 0.0770; leaf margin 0.0169; systemic leaves 0

Reference: Wu et al. 2024, doi:10.1371/journal.ppat.1012142.